Test results reported in US20090182133A1 (priority 2005, published 2009).

Biological target: SARS 3CL proteinase (Severe acute respiratory syndrome coronavirus, UniProt P0C6X7)
Test: biochemical
Format: binding, SARS-CoV

Question: `O=c1c(O[C@@H]2O[C@H](CO)[C@@H](O)[C@H](O)[C@H]2O)c(-c2ccc(O)c(O)c2)oc2cc(O)cc(O)c12` [IA-1, Quercetin-3-O-β-D-glucopyranoside] was tested. Which Kd did it give?
Answer: Its Kd is 26.7 µM.

Question: What about the “coupling/affinity with SARS 3CL (in words)” value of the same compound?
Answer: The value was “couple strongly”.
